Compound potency records, mixed from different reports. Data source: NIAID ChemDB in PubChem.

Common to all: tests in culture; agent: Mycobacterium avium complex

Conditions beyond the fields shown may differ between rows.

compound,read-out,strain or isolate,method,value
CC[C@H]1OC(=O)[C@H](C)[C@@H](O[C@H]2C[C@@](C)(OC)[C@@H](O)[C@H](C)O2)[C@H](C)[C@@H](O[C@@H]2O[C@H](C)C[C@H](N(C)C)[C@H]2O)[C@](C)(OC)C[C@@H](C)C(=O)[C@H](C)[C@@H](O)[C@]1(C)O,MIC,101,-,1 µg/mL
C[C@@H]1CN(c2c(F)c(N)c3c(=O)c(C(=O)O)cn(C4CC4)c3c2F)C[C@H](C)N1,MIC90,12 strains,-,1 µg/mL
CO[C@H]1/C=C/O[C@@]2(C)Oc3c(C)c(O)c4c(O)c(c(/C=N/N5CCN(C6CCCC6)CC5)c(O)c4c3C2=O)NC(=O)/C(C)=C\C=C\[C@H](C)[C@H](O)[C@@H](C)[C@@H](O)[C@@H](C)[C@H](OC(C)=O)[C@@H]1C,MIC,MO-1,-,4 µg/mL
CN[C@@H]1[C@@H](O)[C@@H](O[C@@H]2[C@@H](O)[C@H](O[C@H]3O[C@H](CN)CC[C@H]3N)[C@@H](N)C[C@H]2N)OC[C@]1(C)O,EC50,31 strains,broth dilution,>8 µg/mL
CC(C)N=c1cc2n(-c3ccc(Cl)cc3)c3ccccc3nc-2cc1Nc1ccc(Cl)cc1,MIC,SK32/HIV+,-,1 µg/mL
CN1CCN(CCCN=c2cc3n(-c4ccc(Cl)cc4)c4ccccc4nc-3cc2Nc2ccccc2)CC1,MIC90,10 srtains,-,2 µg/mL
Nc1nc(-n2cc(C(=O)O)c(=O)c3cc(F)c(N4CC(O)C4)c(Cl)c32)c(F)cc1F,MIC50,20 strains,-,3.13 µg/mL
CO[C@H]1/C=C/O[C@@]2(C)Oc3c(C)c(O)c4c(O)c(c5c(c4c3C2=O)NC2(CCN(CC(C)C)CC2)N=5)=NC(=O)/C(C)=C\C=C\[C@H](C)[C@H](O)[C@@H](C)[C@@H](O)[C@@H](C)[C@H](OC(C)=O)[C@@H]1C,MIC,155-4,-,0.5 µg/mL
NC[C@@H]1O[C@H](O[C@H]2[C@@H](O)[C@H](O[C@@H]3[C@@H](O)[C@H](N)C[C@H](N)[C@H]3O[C@H]3O[C@H](CO)[C@@H](O)[C@H](O)[C@H]3N)O[C@@H]2CO)[C@H](N)[C@@H](O)[C@@H]1O,MIC,541/HIV+,-,1.56 µg/mL
C[C@@H]1CN(c2c(F)c(N)c3c(=O)c(C(=O)O)cn(C4CC4)c3c2F)C[C@H](C)N1,MIC,LPR,-,4 µg/mL
Cc1c(CN2CCOCC2)c(CN2CCOCC2)c(-c2ccc(Cl)cc2)n1Cc1ccccc1,MIC,103317,-,>64 µg/mL
NC1CCN(c2nc3c(cc2F)c(=O)c(C(=O)O)cn3-c2ccc(F)cc2F)C1,MIC90,25 isolates,-,>8 µg/mL
CC(=O)NC[C@H]1CN(c2ccc(-c3ccc(-c4nnnn4C)nc3)c(F)c2)C(=O)O1,MIC50,13 isolates,-,4 µg/mL
CCCCCCn1c(C)cc(CN2CCN(C)CC2)c1C,MIC,103317,-,16 µg/mL
NNC(=O)c1ccncc1,MIC50,-,-,>1 µg/mL
CO[C@H]1/C=C/O[C@@]2(C)Oc3c(C)c(O)c4c(O)c(c5c(c4c3C2=O)NC2(CCN(CC(C)C)CC2)N=5)=NC(=O)/C(C)=C\C=C\[C@H](C)[C@H](O)[C@@H](C)[C@@H](O)[C@@H](C)[C@H](OC(C)=O)[C@@H]1C,MIC90,52 strains,-,1.56 µg/mL
CO[C@H]1/C=C/O[C@@]2(C)Oc3c(C)c(O)c4c(O)c(c(/C=N/N5CCN(C)CC5)c(O)c4c3C2=O)NC(=O)/C(C)=C\C=C\[C@H](C)[C@H](O)[C@@H](C)[C@@H](O)[C@@H](C)[C@H](OC(C)=O)[C@@H]1C,MIC,CIPT 140310005,-,0.1 µg/mL
CO[C@H]1/C=C/O[C@@]2(C)Oc3c(C)c(O)c4c(O)c(c(/C=N/N5CCN(C)CC5)c(O)c4c3C2=O)NC(=O)/C(C)=C\C=C\[C@H](C)[C@H](O)[C@@H](C)[C@@H](O)[C@@H](C)[C@H](OC(C)=O)[C@@H]1C,MIC90,20 strains,-,>100 µg/mL
CC[C@@H](CO)NCCN[C@@H](CC)CO,MIC,3214,-,16 µg/mL
Cc1ccc(-c2ccc(Cl)cc2)n1Cc1ccccc1,MIC,103317,-,>16 µg/mL
CN[C@@H]1[C@H](O[C@H]2[C@H](O[C@H]3[C@H](O)[C@@H](O)[C@H](N=C(N)N)[C@@H](O)[C@@H]3N=C(N)N)O[C@@H](C)[C@]2(O)C=O)O[C@@H](CO)[C@H](O)[C@H]1O,MIC,13034 (serotype 18),-,100 µg/mL
CCCCCCn1c(-c2ccc(Cl)cc2)cc(CN2CCN(C)CC2)c1C,MIC,103317,-,>64 µg/mL
NCC[C@H](O)C(=O)N[C@@H]1C[C@H](N)[C@@H](O[C@H]2O[C@H](CN)[C@@H](O)[C@H](O)[C@H]2O)[C@H](O)[C@H]1O[C@H]1O[C@H](CO)[C@@H](O)[C@H](N)[C@H]1O,MIC,3212,-,8 µg/mL
C[C@@H]1CN(c2c(F)c(N)c3c(=O)c(C(=O)O)cn(C4CC4)c3c2F)C[C@H](C)N1,MIC90,20 strains,-,0.78 µg/mL
Nc1ccc(C(=O)O)c(O)c1,EC50,97 strains,agar,>5 µg/mL
NC(=O)c1cnccn1,MIC,-,-,>5 µg/mL
CC[C@@H](CO)NCCN[C@@H](CC)CO,MIC,101,-,16 µg/mL
CN1CCCC1CCN=c1cc2n(-c3ccc(Cl)cc3)c3ccccc3nc-2cc1Nc1ccccc1,MIC90,10 srtains,-,1.85 µg/mL
CN1CCN(c2cc3c(cc2F)c(=O)c(C(=O)O)cn3-c2ccc(F)cc2)CC1,MIC,3211,-,16 µg/mL
CC[C@H]1OC(=O)[C@H](C)[C@@H](O[C@H]2C[C@@](C)(OC)[C@@H](O)[C@H](C)O2)[C@H](C)[C@@H](O[C@@H]2O[C@H](C)C[C@H](N(C)C)[C@H]2O)[C@](C)(OC)C[C@@H](C)C(=O)[C@H](C)[C@@H](O)[C@]1(C)O,MIC,1124,-,2 µg/mL
CCCCCCn1c(C)ccc1C,MIC,103317,-,>16 µg/mL
CC[C@H]1OC(=O)[C@H](C)[C@@H](O[C@H]2C[C@@](C)(OC)[C@@H](O)[C@H](C)O2)[C@H](C)[C@@H](O[C@@H]2O[C@H](C)C[C@H](N(C)C)[C@H]2O)[C@](C)(OC)C[C@@H](C)C(=O)[C@H](C)[C@@H](O)[C@]1(C)O,MIC90,28 strains,-,4 µg/mL
C[C@@H]1CN(c2c(F)c(N)c3c(=O)c(C(=O)O)cn(C4CC4)c3c2F)C[C@H](C)N1,MIC,26,broth dilution,1 µg/mL
CN[C@@H]1[C@H](O[C@H]2[C@H](O[C@H]3[C@H](O)[C@@H](O)[C@H](N=C(N)N)[C@@H](O)[C@@H]3N=C(N)N)O[C@@H](C)[C@]2(O)C=O)O[C@@H](CO)[C@H](O)[C@H]1O,MIC,Isolate C-16,-,>400 µg/mL
CO[C@H]1/C=C/O[C@@]2(C)Oc3c(C)c(O)c4c(O)c(c5c(c4c3C2=O)NC2(CCN(CC(C)C)CC2)N=5)=NC(=O)/C(C)=C\C=C\[C@H](C)[C@H](O)[C@@H](C)[C@@H](O)[C@@H](C)[C@H](OC(C)=O)[C@@H]1C,MIC90,40 isolates,-,1.6 µg/mL
CO[C@H]1/C=C/O[C@@]2(C)Oc3c(C)c(O)c4c(O)c(c(/C=N/N5CCN(C)CC5)c(O)c4c3C2=O)NC(=O)/C(C)=C\C=C\[C@H](C)[C@H](O)[C@@H](C)[C@@H](O)[C@@H](C)[C@H](OC(C)=O)[C@@H]1C,MIC,13016 (serotype 4),-,0.4 µg/mL
CC[C@@H](CO)NCCN[C@@H](CC)CO,MIC,1171,-,8 µg/mL
CN[C@@H]1[C@H](O[C@H]2[C@H](O[C@H]3[C@H](O)[C@@H](O)[C@H](N=C(N)N)[C@@H](O)[C@@H]3N=C(N)N)O[C@@H](C)[C@]2(O)C=O)O[C@@H](CO)[C@H](O)[C@H]1O,MIC,-,-,>3 µg/mL
CC1COc2c(N3CCN(C)CC3)c(F)cc3c(=O)c(C(=O)O)cn1c23,MIC90,20 strains,-,12.5 µg/mL
CC(C)N=c1cc2n(-c3ccc(Cl)cc3)c3ccccc3nc-2cc1Nc1ccc(Cl)cc1,MIC,969/HIV-,-,0.12 µg/mL
NC[C@H]1O[C@H](O[C@H]2[C@H](O)[C@@H](O[C@H]3O[C@H](CO)[C@@H](O)[C@H](N)[C@H]3O)[C@H](N)C[C@@H]2N)[C@H](O)[C@@H](O)[C@@H]1O,MIC,N-980 (HIV+),-,8 µg/mL
CNn1cc(C(=O)O)c(=O)c2cc(F)c(N3CCN(C)CC3)cc21,MIC50,19 strains,-,12.5 µg/mL

The first 6 rows once more:

compound	read-out	strain or isolate	method	value
CC[C@H]1OC(=O)[C@H](C)[C@@H](O[C@H]2C[C@@](C)(OC)[C@@H](O)[C@H](C)O2)[C@H](C)[C@@H](O[C@@H]2O[C@H](C)C[C@H](N(C)C)[C@H]2O)[C@](C)(OC)C[C@@H](C)C(=O)[C@H](C)[C@@H](O)[C@]1(C)O	MIC	101	-	1 µg/mL
C[C@@H]1CN(c2c(F)c(N)c3c(=O)c(C(=O)O)cn(C4CC4)c3c2F)C[C@H](C)N1	MIC90	12 strains	-	1 µg/mL
CO[C@H]1/C=C/O[C@@]2(C)Oc3c(C)c(O)c4c(O)c(c(/C=N/N5CCN(C6CCCC6)CC5)c(O)c4c3C2=O)NC(=O)/C(C)=C\C=C\[C@H](C)[C@H](O)[C@@H](C)[C@@H](O)[C@@H](C)[C@H](OC(C)=O)[C@@H]1C	MIC	MO-1	-	4 µg/mL
CN[C@@H]1[C@@H](O)[C@@H](O[C@@H]2[C@@H](O)[C@H](O[C@H]3O[C@H](CN)CC[C@H]3N)[C@@H](N)C[C@H]2N)OC[C@]1(C)O	EC50	31 strains	broth dilution	>8 µg/mL
CC(C)N=c1cc2n(-c3ccc(Cl)cc3)c3ccccc3nc-2cc1Nc1ccc(Cl)cc1	MIC	SK32/HIV+	-	1 µg/mL
CN1CCN(CCCN=c2cc3n(-c4ccc(Cl)cc4)c4ccccc4nc-3cc2Nc2ccccc2)CC1	MIC90	10 srtains	-	2 µg/mL

An empty or dashed field is not shown. MIC50, MIC90 and the like: level of inhibition, or share of isolates inhibited. ECn: concentration that inhibits the pathogen or its effect by n%.